Anti-infective test results gathered from many reports (values: NIAID ChemDB through PubChem).

All rows: toxicity to cultured cells; measure: CC50

Rows are shuffled and stem from different studies. CCn is the concentration with n% toxicity to the cells. An empty or dashed field is not shown.

SMILES	cells	setting	read by	result
CCCNC(=O)c1cc(OC)c(OC)cc1NC(=O)C12CC3CC(CC(C3)C1)C2	MOLT-4	-	-	36.9 µM
CCc1nc2sccn2c1C(=O)c1ccco1	U1	-	-	>100 µM
CN(C)c1ccc(C(O)c2cc(C34CC5CC(CC(C5)C3)C4)c3ccccc3n2)cc1	Mouse fibroblasts	-	MTT / absorbance	>200 µg/mL
OC[C@@H](O)[C@H]1NC[C@H](O)[C@@H]1O	Karpas 45 cells	-	-	>160 µg/mL
C[C@@]1(O)[C@H](O)[C@@H](CO)O[C@H]1n1ccc(N)nc1=O	Huh 5-2	-	-	>30 µM
Nc1ncnc2c1ncn2[C@H]1CC[C@@H](CO)O1	BFU-E	-	-	10 µM
COC(=O)[C@H](C)NP(=O)(OC[C@@H]1CC[C@H](N2C(=O)NC(=O)C(C)(Br)C2OC)O1)Oc1ccc(Br)cc1	HUMAN SPERM	-	-	58 µM
S=C(N/N=C(/c1ccccc1)c1ccccn1)Nc1ccccc1	CEM-GFP	-	propidium iodide	0.9 µM
Cc1ccc(NC(=O)C23CC4CC(CC(C4)C2)C3)c(C(=O)N/N=C/c2ccc(C)o2)c1	MOLT-4	-	-	45.6 µM
CC(=O)Oc1c(-c2ccc(Cl)cc2)oc2ccccc2c1=O	KB	-	-	6.5 µM
C[C@H](COc1cc(N)nc(N)n1)OCP(=O)(O)O	HepAD38	-	-	>360 µM
CNC(=S)N/N=C(\c1ccccc1)c1ccccn1	CEM-GFP	-	propidium iodide	>10 µM
Nc1cc(SCCOCP(=O)(O)O)nc(N)n1	HEPAD79	-	-	>357 µM
O=C(O)C(=O)CC(=O)c1cc(OCc2ccccc2)cc(OCc2ccccc2)c1	CEMfx	-	MTT	>100 µM
Nc1nc2c(ncn2[C@H]2O[C@@H](CO)C[C@H]2F)c(=O)[nH]1	PBM	-	-	>100 µM
C[C@@H]1NC[C@@H](O)[C@H](O)[C@@H]1O	Karpas 45 cells	-	-	>150 µg/mL
Nc1nc(N)c(Br)c(OCCOCP(=O)(O)O)n1	HEPAD79	-	-	>292 µM
CCCCCCCCCCCCCCCC(=O)OCC(CO)(COC(=O)CCCCCCCCCCCCCCC)NC(=O)CNC(=O)[C@H](CCC(=O)O)NC(=O)c1ccc(N(C)Cc2cnc3nc(N)nc(N)c3n2)cc1	Jurkat cells	-	-	10.3 µM
CCc1nc2ccccn2c1C(=O)c1cccs1	U1	-	-	>100 µM
COC(=O)N[C@H](C(=O)N1CCC[C@H]1c1ncc(-c2ccc(-c3ccc(-c4cnc([C@@H]5CCCN5C(=O)[C@@H](NC(=O)OC)C(C)C)[nH]4)cc3)cc2)[nH]1)C(C)C	COLO-205	-	ATP	17 µM
CC(C)(C)C1CCC(c2cc(C(=O)NN)nc3ccccc23)CC1	Mouse fibroblasts	-	MTT / absorbance	>200 µg/mL
CC(=O)N1C[C@@H](O)[C@H](O)[C@H](O)[C@@H]1C	Karpas 45 cells	-	-	>300 µg/mL
Fc1ccccc1CCNC(=S)Nc1ccc(Br)cn1	HUMAN SPERM	-	-	147 µM
Cc1c(N)nc(N)nc1OCCOCP(=O)(O)O	HEPAD79	-	-	>360 µM
C=CCC(O)c1cc(C23CC4CC(CC(C4)C2)C3)c2ccccc2n1	Mouse fibroblasts	-	MTT / absorbance	>200 µg/mL
C#Cc1c(C(N)=O)ncn1[C@@H]1O[C@H](CO)[C@@H](O)[C@H]1O	PRK	-	-	0.37 µg/mL
Nc1cc(OCCOCP(=O)(O)O)ncn1	HepAD38	-	-	>402 µM
CCCCCCCCCc1ccc(OCCOCCOCCOCCOCCOCCOCCOCCOCCO)cc1	HUMAN SPERM	-	-	81 µM
OC[C@H](O)[C@@H]1[C@H](O)[C@@H](O)CN1Cc1ccccc1	Karpas 45 cells	-	-	>100 µg/mL
Cc1ccc(NC(=O)C23CC4CC(CC(C4)C2)C3)c(C(=O)NN)c1	MOLT-4	-	-	9.2 µM
COC1CCCC(c2cc(C(=O)NN)nc3ccccc23)C1	Mouse fibroblasts	-	MTT / absorbance	>200 µg/mL
Nc1cc(OCCOCP(=O)(O)O)nc(=O)[nH]1	HEPAD79	-	-	>356 µM
COc1cc(O)c2c(c1)OC(c1ccc(O)cc1)CC2=O	THP-1	-	MTT	39.5 µg/mL
Nc1ccn([C@H]2CC[C@@H](CO)O2)c(=O)n1	PBM	-	XTT	>10 µM
Nc1ncnc2c1ccn2[C@@H]1O[C@H](CO)[C@@H](O)[C@H]1O	PRK	-	-	0.0061 µg/mL
CN(N=C(c1ccccn1)c1ccccn1)C(N)=S	CEM-GFP	-	propidium iodide	>10 µM
O=P(Oc1ccccc1)(Oc1ccccc1)Oc1ccccc1	Human foreskin fibroblasts	-	-	133 µM
CCCCCCCCCCCCCCCC(=O)OCC(CO)(COC(=O)CCCCCCCCCCCCCCC)NC(=O)CNC(=O)CC[C@H](NC(=O)c1ccc(N(C)Cc2cnc3nc(N)nc(N)c3n2)cc1)C(=O)O	SWISS 3T3	-	-	0.4139 µM
CC1=CCC(C(C)C2=CC[C@]3(C)C(=C2C)C[C@]2(O)C=C4C=CC(=O)OC(C)(C)C4[C@H](O)CC23)OC1=O	HL-60	-	MTT	22.65 µM
COc1cc(C(=O)Oc2c(-c3ccc(Cl)c(Cl)c3)oc3ccccc3c2=O)ccc1OC(C)=O	KB	-	-	>100 µM
O=C1N[C@@H]([C@@H](O)CO)[C@H](O)[C@H]1O	Karpas 45 cells	-	-	>30 µg/mL
CNc1ncnc2c1ncn2[C@H]1O[C@@H](CO)C[C@H]1F	PBM	-	-	>100 µM
Cc1cn([C@H]2C[C@H](F)[C@@H](CO)O2)c(=O)[nH]c1=O	BFU-E	-	-	1 µM
O=c1c(O)c(-c2ccc(O)c(O)c2)oc2cc(O)cc(O)c12	KB	-	-	25 µM
C=CC(O)(CCC(C)C1CCC2C3CCC4C[C@@H](O)CC[C@]4(C)C3=CC[C@]12C)C(C)C	Hs27	-	ATP / luminescence	>100 µM
CCCn1[se]c2ncccc2c1=O	A549	-	-	5 µg/mL
Cc1ccc(/C=N/NC(=O)c2cc(Cl)ccc2NC(=O)C23CC4CC(CC(C4)C2)C3)o1	MOLT-4	-	-	39.9 µM
C=CCNC(=S)N/N=C(\c1ccccc1)c1ccccn1	CEM-GFP	-	propidium iodide	>10 µM
COc1cc(C(=O)Oc2c(-c3ccc(Cl)c(Cl)c3)oc3ccccc3c2=O)ccc1O	KB	-	-	4.7 µM
CC(C)(O)c1ccc2c(c1)CC[C@H]1[C@](C)(C(=O)O)CCC[C@]21C	NCl-H187	-	absorbance	24.7 µg/mL
Nc1nc(=O)n([C@H]2O[C@@H](CO)C[C@H]2F)cc1Cl	PBM	-	-	>100 µM
C=C(C)[C@@H]1CCC2[C@]3(CC[C@]4(C)[C@@H]([C@H](C)CC/C=C(/C)C(=O)O)CC[C@@]24C)C[C@]13CCC(=O)O	BEL-7402	-	MTT	>50 µM
NNC(=O)c1cc(C2CCC(C(F)(F)F)CC2)c2ccccc2n1	Mouse fibroblasts	-	MTT / absorbance	>200 µg/mL
NC(=O)c1c[se]c([C@@H]2O[C@H](CO)[C@@H](O)[C@H]2O)n1	VERO 76	-	-	320 µg/mL
C[n+]1cccc(-n2[se]c3ccccc3c2=O)c1	A549	-	-	80 µg/mL
S=C(N/N=C(/c1ccccn1)C1C=CC=CC1)c1ccccc1	CEM-GFP	-	propidium iodide	>10 µM
C=C(C)C1CCC2[C@]3(CC[C@]4(C)/C(=C(\C)CC/C=C(/C)C(=O)O)CC[C@@]24C)C[C@]13CCC(=O)O	BEL-7402	-	MTT	24.88 µM
N#CCc1c(N)nc(N)nc1OCCOCP(=O)(O)O	HepAD38	-	-	>330 µM
C/C(=N\OCc1ccc(F)cc1)c1c(C)cc(=O)n(O)c1O	HepG2	3 d	MTS	65.5 µM
C[C@@H](COc1cc(N)nc(N)n1)OCP(=O)(O)O	HEPAD79	-	-	>360 µM
OC[C@@H]1NC[C@@H](O)[C@H]1O	Karpas 45 cells	-	-	>130 µg/mL
Nc1ncnc2c1ncn2CCOCP(=O)(O)O	HB611	-	-	48 µM
Cc1cn([C@H]2C=C[C@@H](CO)O2)c(=O)[nH]c1=O	BFU-E	-	-	10 µM
CCNC(=S)N/N=C(\c1cccc([N+](=O)[O-])c1)c1ccccn1	CEM-GFP	-	propidium iodide	>10 µM
COC(=O)[C@H](C)NP(=O)(OC[C@H]1O[C@@H](N2C(=O)NC(=O)C(C)(Br)C2OC)C[C@@H]1N=[N+]=[N-])Oc1ccc(Br)cc1	HUMAN SPERM	-	-	6 µM
Nc1cc(OCCOCP(=O)(O)O)nc(N)n1	HepAD38	-	-	>379 µM
Cc1cn([C@H]2O[C@@H](CO)C[C@H]2F)c(=O)nc1N	PBM	-	-	>100 µM
Nc1nc(N)c2ncn([C@H]3CO[C@@H](CO)O3)c2n1	CBMC	-	-	>500 µM
COc1cc([C@@H]2c3cc4c(cc3[C@@H](O[C@@H]3O[C@@H]5CO[C@@H](C)O[C@H]5[C@H](O)[C@H]3O)[C@H]3COC(=O)[C@H]23)OCO4)cc(OC)c1O	KB	-	-	0.4 µM
COC(=O)N[C@H](C(=O)N1CCC[C@H]1c1nc2ccc(-c3csc4c(-c5ccc(-c6cnc([C@@H]7CCCN7C(=O)[C@H](NC(=O)OC)c7ccccc7)[nH]6)cc5)csc34)cc2[nH]1)C(C)C	Zluc	-	resazurin	>100 µM
CCNC(=O)c1cc(C)ccc1NC(=O)C12CC3CC(CC(C3)C1)C2	MOLT-4	-	-	34.6 µM

Again, the opening 10 rows:

SMILES	cells	setting	read by	result
CCCNC(=O)c1cc(OC)c(OC)cc1NC(=O)C12CC3CC(CC(C3)C1)C2	MOLT-4	-	-	36.9 µM
CCc1nc2sccn2c1C(=O)c1ccco1	U1	-	-	>100 µM
CN(C)c1ccc(C(O)c2cc(C34CC5CC(CC(C5)C3)C4)c3ccccc3n2)cc1	Mouse fibroblasts	-	MTT / absorbance	>200 µg/mL
OC[C@@H](O)[C@H]1NC[C@H](O)[C@@H]1O	Karpas 45 cells	-	-	>160 µg/mL
C[C@@]1(O)[C@H](O)[C@@H](CO)O[C@H]1n1ccc(N)nc1=O	Huh 5-2	-	-	>30 µM
Nc1ncnc2c1ncn2[C@H]1CC[C@@H](CO)O1	BFU-E	-	-	10 µM
COC(=O)[C@H](C)NP(=O)(OC[C@@H]1CC[C@H](N2C(=O)NC(=O)C(C)(Br)C2OC)O1)Oc1ccc(Br)cc1	HUMAN SPERM	-	-	58 µM
S=C(N/N=C(/c1ccccc1)c1ccccn1)Nc1ccccc1	CEM-GFP	-	propidium iodide	0.9 µM
Cc1ccc(NC(=O)C23CC4CC(CC(C4)C2)C3)c(C(=O)N/N=C/c2ccc(C)o2)c1	MOLT-4	-	-	45.6 µM
CC(=O)Oc1c(-c2ccc(Cl)cc2)oc2ccccc2c1=O	KB	-	-	6.5 µM